Experimental data taken from the supplement of paper PMC9931576.
Human monoclonal antibodies against the spike receptor-binding domain (heavy:light variable regions). IC50 against pseudoviruses bearing the spike of naturally observed variants; lower = stronger; >10 µg/ml means not reached at the top dose. No active / inactive call. The stated detection limit is 0.0005 µg/ml; values near or below 0.001 µg/ml lie at the floor of the assay.

Key:
Experiment in all cases: pseudovirus neutralization IC50; higher = weaker neutralization
[1] = target: SARS-CoV-2 Omicron BA.1 spike pseudovirus
Procedure: (§1)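 Single-round VSV luciferase pseudovirus mixed with antibody dilutions for 1 h and put on Huh-7 cells for about a day; IC50 from the dose curve.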

[2] = target: SARS-CoV-2 Omicron BA.2 spike pseudovirus
Procedure: as §1

[3] = target: SARS-CoV-2 Omicron BA.2.75 spike pseudovirus
Procedure: as §1

[4] = target: SARS-CoV-2 Omicron BA.5 spike pseudovirus
Procedure: as §1

[5] = target: SARS-CoV-2 Omicron BQ.1.1 spike pseudovirus
Procedure: as §1

[6] = target: SARS-CoV-2 Omicron XBB spike pseudovirus
Procedure: as §1

[7] = target: SARS-CoV-2 early D614G spike pseudovirus
Procedure: as §1

B1: BD55-6438 (protein)
chain 1: QVQLRESGPGLVKPSETLSLTCTVSGDSMSSYYWSWIRQSAGKGLEWIGRIHPSGSTNHKSSLSGRVTMSVDTSKNQFSLLLRSVTAADTAVYYCARGGCSSTSCFGFYFYGMDVWGQGTTVTVSS
chain 2: DIQMTQSPSSLSASVGDRVTITCQASQDISNFLNWYQQKPGKAPKLLISAASNLETGVPSRFSGSGSGRDFTLTISSLLPEDFGTYYCQQYADLPLFGGGTKV
For B1, the “pseudovirus neutralization IC50” value [1] was > 10 µg/mL, the “pseudovirus neutralization IC50” value [2] was > 10 µg/mL and the “pseudovirus neutralization IC50” value [3] was > 10 µg/mL. The “pseudovirus neutralization IC50” value [4] was > 10 µg/mL, the “pseudovirus neutralization IC50” value [5] was > 10 µg/mL and the “pseudovirus neutralization IC50” value [6] was > 10 µg/mL. The “pseudovirus neutralization IC50” value [7] was > 10 µg/mL.

B2: BD55-6403 (protein)
chain 1: EVQLVESGGGLVQPGGSLRLSCAASGFTFRQYWMHWVRHVPGKGLVWVSRIDSDGSGAFYAGSVRGRFTVSRDNSKGTLYLQMNSLRAEDTAVYYCAREEGYYYHYMDVWGKGTTVTVSS
chain 2: DIQMTQSPSSLSASVGDRVTITCRASQSIGDYINWYQYKPGKAPKLLIYAATNLHSGVSSRFVGTGSGTDFTLTISGLQPDDFATYYCQQSYTTPPPTFGGGTKVEI
With B2 the “pseudovirus neutralization IC50” value [1] was > 10 µg/mL, the “pseudovirus neutralization IC50” value [2] was > 10 µg/mL and the “pseudovirus neutralization IC50” value [3] was > 10 µg/mL. The “pseudovirus neutralization IC50” value [4] was > 10 µg/mL, the “pseudovirus neutralization IC50” value [5] was > 10 µg/mL and the “pseudovirus neutralization IC50” value [6] was > 10 µg/mL. For the same binder, the “pseudovirus neutralization IC50” value [7] was > 10 µg/mL.

B3: BD55-6423 (protein)
chain 1: QVQLVESGGGVVQPGGSLRLSCAASGFSFSDFAMHWVRQAPGKGLEWVAVISYHGTNEYYVDSVKGRFTISRDNSRKTLYLEMNSLRVEDTAVYYCATGGSFGDFSTYHYYAMDDWGQGTTVTVSS
chain 2: QSLLTQPPSASGTPGQRVIISCSGSSSNIGSNYVYWYQQLPGTAPKLLIYRNAQRPSGVPDRFSGSRSGTSASLAISGLRSEDEADYYCAAWDDSLSACVFGGGTKLTVL
With B3 the “pseudovirus neutralization IC50” value [1] was > 10 µg/mL, the “pseudovirus neutralization IC50” value [2] was > 10 µg/mL and the “pseudovirus neutralization IC50” value [3] was > 10 µg/mL. The “pseudovirus neutralization IC50” value [4] was > 10 µg/mL, the “pseudovirus neutralization IC50” value [5] was > 10 µg/mL and the “pseudovirus neutralization IC50” value [6] was > 10 µg/mL. The “pseudovirus neutralization IC50” value [7] was > 10 µg/mL.

B4: BD55-6463 (protein)
chain 1: QVLLVQSGAEVKKPGASVKVSCKASGYIFTSCDINWVRQAPGQGLEWMGWMNPSSGDTGSAHKFQGRVTMTRDTSISTAFMELSSLRSEDTAVYYCAIAFSSASQPLLFVDYYYGWDVWGQGTTVTVSS
chain 2: DIQMTQSPSSLSASVGDRVTITCRASLSIDNSLNWYQQKPGKAPNLLIYAASSLQSGVPSRFSGRGSGTDFTLTISSLQPEDFATYFCQQSYSTPPTFGGGTKVEIK
B4 was tested, and the “pseudovirus neutralization IC50” value [1] was > 10 µg/mL, the “pseudovirus neutralization IC50” value [2] was > 10 µg/mL and the “pseudovirus neutralization IC50” value [3] was > 10 µg/mL. The “pseudovirus neutralization IC50” value [4] was > 10 µg/mL, the “pseudovirus neutralization IC50” value [5] was > 10 µg/mL and the “pseudovirus neutralization IC50” value [6] was > 10 µg/mL. For the same binder, the “pseudovirus neutralization IC50” value [7] was > 10 µg/mL.

B5: BD55-6404 (protein)
chain 1: QVHLVQSGAEVKKPGASVKISCKTSGYPFTSHYMHWVRQAPGQGPEWMGFINPSTLTTEYAQKIQGRATLTRDMSTSTVYMELSSLRSEDTAIYYCARESSGVNVAENHFDLWGQGTLVTVSS
chain 2: EIVLTQSPGILSLSPGERATLSCRASQHVSSNYLAWYQQKSGQAPRLLIYGASSRATGIPDRFSGSGSGTDFTLTISRLEPEDVAVYFCQQYYTSPRTFGQGTKVEIK
For B5, the “pseudovirus neutralization IC50” value [1] was > 10 µg/mL, the “pseudovirus neutralization IC50” value [2] was > 10 µg/mL and the “pseudovirus neutralization IC50” value [3] was > 10 µg/mL. The “pseudovirus neutralization IC50” value [4] was > 10 µg/mL, the “pseudovirus neutralization IC50” value [5] was > 10 µg/mL and the “pseudovirus neutralization IC50” value [6] was > 10 µg/mL. For the same binder, the “pseudovirus neutralization IC50” value [7] was > 10 µg/mL.

B6: BD55-6457 (protein)
chain 1: EVQLVESGGGLVQPGGSLRLSCAASGFTFNTYAMHWVRQAPGKGLEFVSSITSNGGGTFYANSVKGRFTISRDNSKNTLYLQMGSLRAEDMAVYYCAREGLDYFLYFDYWGQGALVTVSS
chain 2: DIQMTQSPSSLSASVGDRVTITCRASQSINIYLNWYQQKPGKAPKLLIYGASSLQNGVPSRFSGSGSGTEFTLTISSLQPEDFATYYCQQSYTTPTWTFGPGTKVEIK
In the case of B6, the “pseudovirus neutralization IC50” value [1] is reported as > 10 µg/mL, the “pseudovirus neutralization IC50” value [2] is reported as > 10 µg/mL and the “pseudovirus neutralization IC50” value [3] is reported as > 10 µg/mL. For the same binder, the “pseudovirus neutralization IC50” value [4] was > 10 µg/mL, the “pseudovirus neutralization IC50” value [5] was > 10 µg/mL and the “pseudovirus neutralization IC50” value [6] was > 10 µg/mL. For the same binder, the “pseudovirus neutralization IC50” value [7] was > 10 µg/mL.

B7: BD55-6460 (protein)
chain 1: HVQLVQSGAEVKKPGSSVKVSCKTSGGPFSTYAVSWVRQAPGQGLEWMGGLIPTFGTPYYAQKFQGRFTVAADESTDTVYMELSSLTFEDTAVYYCARGAVLYWFGEAFDYWGQGTLVAVSS
chain 2: QSALTQPPSASGSPGQSVTISCTGTGSDIGGYNYVSWYQQHPGTAPKLIIYEVNKRPSGVPDRFSGSKSGNTASLTVSGLLAEDEAVYYCSSYGVINNVIVVFGGGTMLTVL
For B7, the “pseudovirus neutralization IC50” value [1] was > 10 µg/mL, the “pseudovirus neutralization IC50” value [2] was > 10 µg/mL and the “pseudovirus neutralization IC50” value [3] was > 10 µg/mL. For the same binder, the “pseudovirus neutralization IC50” value [4] was > 10 µg/mL, the “pseudovirus neutralization IC50” value [5] was > 10 µg/mL and the “pseudovirus neutralization IC50” value [6] was > 10 µg/mL. For the same binder, the “pseudovirus neutralization IC50” value [7] was > 10 µg/mL.

B8: BD55-6413 (protein)
chain 1: QVQLVQSGSELKKPGASMKVSCKASGYTFTTYALKWVRQAPGQGLEWMGWINTNTGNPTYAQGFTGRFVFSLDTSVSTAYLQISSLRAEDTAVYYCARVFCSYDKCYDVDYWGQGTLITVSS
chain 2: QSVLTQPPSASGTPGQRVTISCSGSTSNIGNNFVYWYQQLPGTAPKLLIFRNTHRPSGVPDRFSGSKSGTSASLAISGLRSEDEADYYCASWDDSLSGRVFGGGTKLAVL
With B8 the “pseudovirus neutralization IC50” value [1] was > 10 µg/mL, the “pseudovirus neutralization IC50” value [2] was > 10 µg/mL and the “pseudovirus neutralization IC50” value [3] was > 10 µg/mL. For the same binder, the “pseudovirus neutralization IC50” value [4] was > 10 µg/mL, the “pseudovirus neutralization IC50” value [5] was > 10 µg/mL and the “pseudovirus neutralization IC50” value [6] was > 10 µg/mL. For the same binder, the “pseudovirus neutralization IC50” value [7] was 0.0965 µg/mL.

B9: BD55-6405 (protein)
chain 1: QLQLQESGPGLVKPSETLSLACTVSGGAISSSVDYWGWIRQPPGKGLEWIGSLYNGGNTYYNPSLKSRLTISVDMSKDQLSLKLSSVTAADTAVYYCARLAYDGSLDDHWGQGVLVTVSS
chain 2: QSVLTQPPSASGTPGQRVTISCSGRSSNIGSNYVYWYHQLPGTAPKLLIYRNNLRPSGVPDRFSGSKSGASASLAISGLRSEDEADYYCASWDDSLSGVVFGGGTKLTVL
B9 was tested, and the “pseudovirus neutralization IC50” value [1] was > 10 µg/mL, the “pseudovirus neutralization IC50” value [2] was > 10 µg/mL and the “pseudovirus neutralization IC50” value [3] was > 10 µg/mL. The “pseudovirus neutralization IC50” value [4] was > 10 µg/mL, the “pseudovirus neutralization IC50” value [5] was > 10 µg/mL and the “pseudovirus neutralization IC50” value [6] was > 10 µg/mL. For the same binder, the “pseudovirus neutralization IC50” value [7] was > 10 µg/mL.

B10: BD55-6410 (protein)
chain 1: QVQLQESGPGLVKPSQTLSLTCTVSGGSVTRGGYYWSWVRQHPGKGLEWIGNIYYTGNTNYKPSLKSRISISVDTSKNQFSLILSSVTAADTAIYYCARGSYYAAGTYYNDYWGQGTLVTVSS
chain 2: SSELTQDPAVSVGLGQTVRITCQGDSLRTYFPSWYQQKPGQAPLLVIYGKNNRPSGIPDRFSGSSSGDTASLTITRTQAEDEADYYCNSRDRSTYHLEVFGGGTKLTVL
For B10, the “pseudovirus neutralization IC50” value [1] was > 10 µg/mL, the “pseudovirus neutralization IC50” value [2] was > 10 µg/mL and the “pseudovirus neutralization IC50” value [3] was > 10 µg/mL. The “pseudovirus neutralization IC50” value [4] was > 10 µg/mL, the “pseudovirus neutralization IC50” value [5] was > 10 µg/mL and the “pseudovirus neutralization IC50” value [6] was > 10 µg/mL. The “pseudovirus neutralization IC50” value [7] was > 10 µg/mL.

B11: BD55-1241 (protein)
chain 1: EVQLVESGGGLVQPGGSLRLSCVASGFTFSRYNMNWVRQAPGKGPEWVSYISTLSTTIDYADSVEGRFTISRDNAKNSLYLQMNSLRDEDTAVYYCARKCGNSCYVGPYYYYGMDVWGQGTTVTVSS
chain 2: DIVMTQSPLSLPVTPGEPASISCRSSQSLLHGNGYNYLDWYLQKPGQSPQVLIYLGSNRASGVPDRFSGSGSGTDFTLKISRVEAEDVGIYYCMQALQTPLTFGQGTRLEIK
In the case of B11, the “pseudovirus neutralization IC50” value [1] is reported as > 10 µg/mL, the “pseudovirus neutralization IC50” value [2] is reported as > 10 µg/mL and the “pseudovirus neutralization IC50” value [3] is reported as > 10 µg/mL. The “pseudovirus neutralization IC50” value [4] was > 10 µg/mL, the “pseudovirus neutralization IC50” value [5] was > 10 µg/mL and the “pseudovirus neutralization IC50” value [6] was > 10 µg/mL. The “pseudovirus neutralization IC50” value [7] was 2.28 µg/mL.

B12: BD55-6455 (protein)
chain 1: QVQLVESGGGVVQPGRSLRLSCAASGFSFTAFGIHWVRQAPGKGLEWVALVSEDGFNAYYADSLKGRFTISRDNSMHTVFLQMTSLRAEDTALYYCVRDSEFNNWKGSGAFGVWGQGTMVTVSS
chain 2: QSVLTQPPSVSGAPGQRVTVSCTGSSSNIGAGYDVHWYQQLPGTAPKLLIYGNDNRPSGVPDRFSGSKSGTSASLAITGLQAEDEADYYCQSYDSSVTGSSYVVFGGGTKLTVL
For B12, the “pseudovirus neutralization IC50” value [1] was > 10 µg/mL, the “pseudovirus neutralization IC50” value [2] was > 10 µg/mL and the “pseudovirus neutralization IC50” value [3] was > 10 µg/mL. The “pseudovirus neutralization IC50” value [4] was > 10 µg/mL, the “pseudovirus neutralization IC50” value [5] was > 10 µg/mL and the “pseudovirus neutralization IC50” value [6] was > 10 µg/mL. For the same binder, the “pseudovirus neutralization IC50” value [7] was 2.67 µg/mL.
